Reference: PubChem BioAssay AID1259414 (Drosophila RNAi Screening Center, 2018)
In all, the deposit lists about 24,000 reagents; below is an unselected part of those that have a named target and a result. Over the whole deposit, about 1,210 (5%) are marked active. 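Inactive calls also include excluded dsRNAs with several or no targets, genes unexpressed in JW18, and well A1, regardless of score.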 A plus sign joins genes that one reagent is predicted to hit. Reagent sequences are not shown.

Aim: 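Genome-wide screen for host control of endosymbiont load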 (primary screen)
Cell system: Drosophila JW18 cells infected with Wolbachia
Reagent: long dsRNA against Drosophila genes, 0.25 µg dsRNA per well of a 384-well plate
Time to read-out: 5 days
Challenge: cells persistently infected with Wolbachia before knock-down; no added drug
Measurement: 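Automated imaging of bacterial rRNA staining divided by host cell count, reported as plate-normalised robust z-score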
Scale: Wolbachia per cell robust z: higher = more Wolbachia per host cell than the plate typical
Hit rule: 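Hit when robust z is 1.5 or more, or -1.5 or less, in at least two of three replicates; excludes dsRNAs with several or no targets, genes not expressed in JW18 and well A1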

How did the screen score CIA30 (Complex I intermediate-associated protein, 30 kDa) [DRSC16266]?
Wolbachia per cell robust z, rep 1: 0.554; Wolbachia per cell robust z, rep 2: 0.215; Wolbachia per cell robust z, rep 3: -4.24; outcome: inactive

With CG7906 [DRSC10928], what was measured?
Wolbachia per cell robust z, rep 1: 0.536; Wolbachia per cell robust z, rep 2: 0.483; Wolbachia per cell robust z, rep 3: 0.77; outcome: inactive

Which result is listed for CG7906 [DRSC29526]?
Wolbachia per cell robust z, rep 1: -0.00425; Wolbachia per cell robust z, rep 2: 1.12; Wolbachia per cell robust z, rep 3: -1.8; outcome: inactive

With CG30089 [DRSC06126], what does the deposit list?
Wolbachia per cell robust z, rep 1: 0.00813; Wolbachia per cell robust z, rep 2: 1.46; Wolbachia per cell robust z, rep 3: 0.403; outcome: inactive

What did the screen give for CG30089 [DRSC06267]?
Wolbachia per cell robust z, rep 1: -0.0355; Wolbachia per cell robust z, rep 2: -0.622; Wolbachia per cell robust z, rep 3: -1.53; outcome: inactive

What is on record for CG30089 [DRSC06268]?
Wolbachia per cell robust z, rep 1: 0.781; Wolbachia per cell robust z, rep 2: 0.454; Wolbachia per cell robust z, rep 3: 0.322; outcome: inactive

What is on record for CG6724 [DRSC02983]?
Wolbachia per cell robust z, rep 1: -1.67; Wolbachia per cell robust z, rep 2: -0.899; Wolbachia per cell robust z, rep 3: 0.161; outcome: inactive

With Kal1 (Kallmann syndrome 1) [DRSC15983], what does the deposit list?
Wolbachia per cell robust z, rep 1: 0.662; Wolbachia per cell robust z, rep 2: 0.485; Wolbachia per cell robust z, rep 3: 0.961; outcome: inactive

With Rbbp5 (Retinoblastoma binding protein 5) [DRSC11778], how do the results read?
Wolbachia per cell robust z, rep 1: 1.36; Wolbachia per cell robust z, rep 2: -0.717; Wolbachia per cell robust z, rep 3: -1.09; outcome: inactive

For CG12689 [DRSC17879], what does the deposit list?
Wolbachia per cell robust z, rep 1: -0.945; Wolbachia per cell robust z, rep 2: -1.07; Wolbachia per cell robust z, rep 3: -0.482; outcome: inactive

For P5CDh2 (delta-1-Pyrroline-5-carboxylate dehydrogenase 2) [DRSC41329], what was measured?
Wolbachia per cell robust z, rep 1: -0.29; Wolbachia per cell robust z, rep 2: 1.09; Wolbachia per cell robust z, rep 3: -0.301; outcome: inactive

For CG10286 [DRSC12520], what does the deposit list?
Wolbachia per cell robust z, rep 1: 0.855; Wolbachia per cell robust z, rep 2: -0.596; Wolbachia per cell robust z, rep 3: 0.393; outcome: inactive

3 of these entries, reformatted:
gene knocked down,dsRNA,"Wolbachia per cell robust z, rep 1","Wolbachia per cell robust z, rep 2","Wolbachia per cell robust z, rep 3",outcome
"CIA30 (Complex I intermediate-associated protein, 30 kDa)",DRSC16266,0.554,0.215,-4.24,inactive
CG7906,DRSC10928,0.536,0.483,0.77,inactive
CG7906,DRSC29526,-0.00425,1.12,-1.8,inactive

The listing continues:
What is on record for Sfp84E (Seminal fluid protein 84E) [DRSC40605]?
Wolbachia per cell robust z, rep 1: -0.408; Wolbachia per cell robust z, rep 2: -0.406; Wolbachia per cell robust z, rep 3: -0.169; outcome: inactive

What did the screen give for CG9168 [DRSC08633]?
Wolbachia per cell robust z, rep 1: -0.316; Wolbachia per cell robust z, rep 2: 0.0639; Wolbachia per cell robust z, rep 3: -1.09; outcome: inactive

With Slbp (Stem-loop binding protein) [DRSC16863], how do the results read?
Wolbachia per cell robust z, rep 1: 0.453; Wolbachia per cell robust z, rep 2: -3.51; Wolbachia per cell robust z, rep 3: 0.45; outcome: inactive

For SRPK (SR Protein Kinase) [DRSC07090], what does the deposit list?
Wolbachia per cell robust z, rep 1: 0.608; Wolbachia per cell robust z, rep 2: -0.0847; Wolbachia per cell robust z, rep 3: -0.00898; outcome: inactive

Which result is listed for SRPK (SR Protein Kinase) [DRSC28162]?
Wolbachia per cell robust z, rep 1: 1.21; Wolbachia per cell robust z, rep 2: 1.09; Wolbachia per cell robust z, rep 3: 0.0466; outcome: inactive

With CG2694 [DRSC18470], what does the deposit list?
Wolbachia per cell robust z, rep 1: -0.271; Wolbachia per cell robust z, rep 2: 0.305; Wolbachia per cell robust z, rep 3: -7.52; outcome: inactive

How did the screen score CG12914 [DRSC06229]?
Wolbachia per cell robust z, rep 1: -0.833; Wolbachia per cell robust z, rep 2: -4.82; Wolbachia per cell robust z, rep 3: -0.0258; outcome: inactive

For CG2736 [DRSC04314], what was measured?
Wolbachia per cell robust z, rep 1: 0.607; Wolbachia per cell robust z, rep 2: -7.57; Wolbachia per cell robust z, rep 3: -0.242; outcome: inactive

For Efr (ER GDP-fucose transporter) [DRSC18322], what was measured?
Wolbachia per cell robust z, rep 1: -1.52; Wolbachia per cell robust z, rep 2: -1.18; Wolbachia per cell robust z, rep 3: -0.00196; outcome: inactive

What did the screen give for Efr (ER GDP-fucose transporter) [DRSC26945]?
Wolbachia per cell robust z, rep 1: 1.26; Wolbachia per cell robust z, rep 2: -0.409; Wolbachia per cell robust z, rep 3: -0.444; outcome: inactive

How did the screen score CR14578 + bcd [DRSC20984]?
Wolbachia per cell robust z, rep 1: 0.179; Wolbachia per cell robust z, rep 2: 0.439; Wolbachia per cell robust z, rep 3: 0.66; outcome: inactive

What is on record for tplus3a (testis-specific Plus3 domain a) [DRSC41325]?
Wolbachia per cell robust z, rep 1: 0.785; Wolbachia per cell robust z, rep 2: -2.41; Wolbachia per cell robust z, rep 3: 0.832; outcome: inactive
